Laboratory results published in publication PMC6819664, “Crystal Structure of African Swine Fever Virus dUTPase Reveals a Potential Drug Target” (2019).

Target: African swine fever virus (ASFV) E165R dUTP nucleotidohydrolase (dUTPase) (African swine fever virus) (UniProt Q65199)
Test: AUC

Q: Which stoichiometry N does the source give for “African swine fever virus (ASFV) E165R dUTP nucleotidohydrolase (dUTPase) (from UniProt Q65199 1-165) (enzyme)” here?
A: The stoichiometry N was 3.
